Compound potency records, mixed from different reports. Data source: NIAID ChemDB in PubChem.

Shared fields: growth or infection tests; agent: HIV-1; method: cytopathic effect / MTT; endpoint: EC50

Conditions beyond the fields shown may differ between rows.

compound | setting | mutations | cell line | strain | value
CCCCCCCCCCCCCCCCOP(=O)(OCCO[C@@H]1O[C@H](CO)[C@@H](O)[C@H](O)[C@@H]1O)OC[C@H]1O[C@@H](n2cc(C)c(=O)[nH]c2=O)C[C@@H]1N=[N+]=[N-] | 7 d | - | CEM-C113 + CEM/C113 | BRU | <0.2 µM
Nc1ccn([C@@H]2CO[C@H](CO)S2)c(=O)n1 | - | - | MT-4 | MN | 22 µM
CC(C)=CCOc1cc(Nc2nccc(CO)n2)ccc1Cl | - | - | MT-2 | IIIB | >0.22 µM
CC(C)c1c(COC(N)=O)cn(Cc2ccncc2)c1Sc1cc(Cl)cc(Cl)c1 | - | - | MT-4 | IIIB | 0.12 µM
CC(C)(C)NC(=O)[C@@H]1C[C@@H]2CCCC[C@@H]2CN1C[C@@H](O)[C@H](Cc1ccccc1)NC(=O)[C@H](CC(N)=O)NC(=O)c1ccc2ccccc2n1 | - | - | MT-4 | IIIB | 0.023 µM
CC(C)[C@H](NC(=O)OCc1ccccc1)C(=O)N[C@@H](Cc1ccccc1)[C@@H](O)[C@@H](NCc1ccccc1)C(=O)N[C@H](C(=O)NCc1ccc(Br)cc1)C(C)C | - | - | MT-4 | IIIB | 1.7 µM
O=C(O[C@H](Cc1ccc(O)c(O)c1)C(=O)O)C1=Cc2cc(O)c(O)cc2[C@@H](c2ccc(O)c(O)c2)[C@@H]1C(=O)O[C@H](Cc1ccc(O)c(O)c1)C(=O)O | - | - | MT-4 | IIIB | >50 µg/mL
Fc1cccc(F)c1C1OCc2nc3ccccc3n21 | - | RT-L100I | CEM | TIBO R82150-resistant (RT L100I) | 6.58 µM
CC(C)[C@H](NC(=O)OCc1ccccc1)C(=O)N[C@@H](Cc1ccccc1)[C@@H](O)[C@@H](NCc1ccccc1)C(=O)N[C@H](C(=O)NCc1nc2ccccc2[nH]1)C(C)C | - | - | MT-4 | IIIB | 0.025 µM
Oc1cc(O)c2c(c1)O[C@H](c1ccc(O)c(O)c1)[C@@H](O)C2 | - | - | MT-4 | IIIB | >100 µg/mL
Cc1c(O)cccc1C(=O)N[C@@H](CSc1ccccc1)[C@H](O)CN1C[C@H]2CCCC[C@H]2C[C@H]1C(=O)NC(C)(C)C | - | - | MT-4 | IIIB | 0.054 µM
CC(=O)N[C@H](C(=O)N[C@@H](Cc1ccccc1)C[C@H](O)[C@H](Cc1ccccc1)NC(=O)[C@@H]1CN(c2ccc(F)c(F)c2)C(=O)O1)C(C)C | - | - | MT-4 | NL4-3 | 0.36 µM
Cc1ccccc1CNC(=O)[C@H]1N(C(=O)[C@@H](O)[C@H](Cc2ccccc2)NC(=O)c2cccc(O)c2C)CSC1(C)C | - | Gag R409K PR M46I I74V V82I I84V | MT-2 | GAG-L75 H219 V390 JE-2147-resistant | >0.5 µM
CC(=O)Oc1ccc(/C=C/C(=O)O[C@@H](C(=O)O)[C@@H](OC(=O)/C=C/c2ccc(OC(C)=O)c(OC(C)=O)c2)C(=O)O)cc1OC(C)=O | - | - | MT-4 | NL4-3 | 8 µM
Oc1cc(O)c2c(c1)O[C@H](c1ccc(O)c(O)c1)[C@H](O)C2 | - | - | MT-4 | IIIB | >100 µg/mL
CCC(C)C(NC(=O)C1CCCN1CC(O)[C@H](Cc1ccccc1)NC(=O)C(CC(N)=O)NC(=O)OCc1ccccc1)C(=O)NC(Cc1ccccc1)C(=O)NC | - | - | CEM | IIIB | 0.39 µM
Cc1cn([C@H]2CC[C@H](CO)O2)c(=O)[nH]c1=O | - | - | MT-2 | IIIB | >100 µM
CC(=O)c1ccc(C)cc1NC(C(N)=O)c1c(Cl)cccc1Cl | - | - | MT-4 | IIIB | 0.01 µM
CCOC(=O)[C@H](CC(C)C)NC(=O)[C@@H](O)[C@H](O)C(=O)N[C@@H](CC(C)C)C(=O)OCC | - | - | PM1 | Z2Z6 | 10 µM
COc1ccc(CN[C@@H](C(=O)N[C@H](C(=O)NCc2ccc(OC)cc2OC)C(C)C)[C@H](O)[C@H](Cc2ccccc2)NC(=O)[C@@H](NC(=O)OCc2ccccc2)C(C)C)cc1 | - | - | MT-4 | IIIB | 0.41 µM
OCc1cn(Cc2ccncc2)c(Sc2cc(Cl)cc(Cl)c2)c1C1CCCCC1 | - | - | MT-4 | IIIB | 0.22 µM
O=C(O[C@@H]1[C@@H](OC(=O)c2cc(O)c(O)c(O)c2)[C@H](O)[C@@H](CO)O[C@H]1O)c1cc(O)c(O)c(O)c1 | - | - | MT-4 | IIIB | >50 µg/mL
Cc1cn([C@H]2C[C@H](N=[N+]=[N-])[C@@H](CO)O2)c(=O)[nH]c1=O | - | - | CEM | IIIB | 0.068 µM
C[C@@H](NC(=O)[C@@H](O)[C@H](O)C(=O)N[C@H](C)c1ccccc1)c1ccccc1 | - | - | PM1 | Z2Z6 | >100 µM
Cc1cn([C@H]2C[C@H](N=[N+]=[N-])[C@@H](CO)O2)c(=O)[nH]c1=O | - | - | CEM + CEM TK- | - | >100 µM
Fc1cccc(F)c1C1SCc2nc3ccccc3n21 | - | - | MT-4 | IIIB | 0.6 µM
CC(=O)c1cn(Cc2ccncc2)c(Sc2cc(Cl)cc(Cl)c2)c1C(C)C | - | - | MT-4 | IIIB | 29 µM
CCc1cc(NCc2nc3c(Cl)ccc(Cl)c3o2)c(=O)[nH]c1C | - | - | MT-4 | IIIB | 0.03 µM
CC(=O)OCc1cn(Cc2ccncc2)c(Sc2ccccc2)c1C(C)C | - | - | MT-4 | IIIB | 0.5 µM
CCOC(=O)[C@@H](NC(=O)[C@@H](O)[C@H](O)C(=O)N[C@H](C(=O)OCC)[C@@H](C)CC)[C@@H](C)CC | - | - | PM1 | Z2Z6 | >100 µM
CCC(C)C(NC(=O)C1CCCN1CC(O)[C@H](Cc1ccccc1)NC(=O)C(CC(N)=O)NC(=O)c1ccc2ccccc2n1)C(=O)NC(Cc1ccccc1)C(=O)NC | - | - | CEM | IIIB | 0.16 µM
CCCCCCCCCCCCCCCCCOP(=O)(OC[C@H]1O[C@@H](O)[C@@H](O)[C@@H](O)[C@@H]1O)OC[C@H]1O[C@@H](n2cc(C)c(=O)[nH]c2=O)C[C@@H]1N=[N+]=[N-] | 7 d | - | CEM-C113 + CEM/C113 | BRU | <0.2 µM
CC(C)c1c(C(C)O)cn(Cc2ccncc2)c1Sc1cc(Cl)cc(Cl)c1 | - | - | MT-4 | IIIB | 26 µM
CCOCn1c(Cc2ccccc2)c(C(C)C)c(=O)[nH]c1=O | - | - | MT-4 | IIIB | 0.006 µM
CONC(=O)c1cn(Cc2ccncc2)c(Sc2cc(Cl)cc(Cl)c2)c1C(C)C | - | - | MT-4 | IIIB | 0.4 µM
Cc1cn([C@H]2C[C@H](N=[N+]=[N-])[C@@H](CO)O2)c(=O)[nH]c1=O | 7 d | - | CEM-C113 + CEM/C113 | BRU | <0.2 µM
O[C@H](CNCc1ccccc1)[C@H](O)CNCc1ccccc1 | - | - | PM1 | Z2Z6 | >100 µM
Cc1c(O)cccc1C(=O)N[C@@H](CSc1ccccc1)[C@H](O)CN1C[C@H]2CCCC[C@H]2C[C@H]1C(=O)NC(C)(C)CO | - | - | MT-2 | IIIB | 0.0856 µM
CC(C)c1c(C(=O)O)cn(Cc2ccncc2)c1Sc1cc(Cl)cc(Cl)c1 | - | - | MT-4 | IIIB | 2.1 µM
COCc1ccnc(Nc2ccc(Cl)c(OCC=C(C)C)c2)n1 | - | - | MT-2 | IIIB | >25 µM
COC(=O)c1cc(O)c(O)c(O)c1 | - | - | MT-4 | IIIB | >12.5 µg/mL
NC(=O)OCc1cn(Cc2ccncc2)c(Sc2cc(Cl)cc(Cl)c2)c1C1CCCCC1 | - | - | MT-4 | IIIB | 0.34 µM

A second listing of 5 rows from above:

compound | setting | mutations | cell line | strain | value
Fc1cccc(F)c1C1SCc2nc3ccccc3n21 | - | - | MT-4 | IIIB | 0.6 µM
CC(C)c1c(COC(N)=O)cn(Cc2ccncc2)c1Sc1cc(Cl)cc(Cl)c1 | - | - | MT-4 | IIIB | 0.12 µM
O=C(O[C@@H]1[C@@H](OC(=O)c2cc(O)c(O)c(O)c2)[C@H](O)[C@@H](CO)O[C@H]1O)c1cc(O)c(O)c(O)c1 | - | - | MT-4 | IIIB | >50 µg/mL
CCCCCCCCCCCCCCCCCOP(=O)(OC[C@H]1O[C@@H](O)[C@@H](O)[C@@H](O)[C@@H]1O)OC[C@H]1O[C@@H](n2cc(C)c(=O)[nH]c2=O)C[C@@H]1N=[N+]=[N-] | 7 d | - | CEM-C113 + CEM/C113 | BRU | <0.2 µM
COCc1ccnc(Nc2ccc(Cl)c(OCC=C(C)C)c2)n1 | - | - | MT-2 | IIIB | >25 µM

An empty or dashed field is not shown. ECn: concentration that inhibits the pathogen or its effect by n%.